Compound potency records, mixed from different reports. Data source: NIAID ChemDB in PubChem.

Shared fields: target-level tests; species: HIV-1; protein: Reverse transcriptase; read by: RT activity / fluorescence; endpoint: IC50

ICn is the concentration giving n% inhibition. An empty or dashed field is not shown. Neighbouring rows are from separate reports.

SMILES | strain or isolate | value
c1ccc2c(c1)CCN(c1nn3c(-c4cscn4)nnc3c3ccccc13)C2 | IIIB | 1.44 µM
Cc1cc(C#N)cc(C)c1Oc1ccnc(S(=O)(=O)CC(=O)Nc2ccc(C#N)cc2)n1 |  | 0.065 µM
Cc1cccc(C(C)c2c(C(C)C)c(=O)[nH]c(=O)n2COCc2ccccc2)c1 |  | 0.55 µM
Cc1cc(-c2ccc(C#N)cc2)cc(C)c1Oc1ccnc(S(=O)(=O)C(C)C(=O)Nc2ccc(Cl)cc2)n1 |  | 1.886 µM
N#Cc1cnc2c(Cl)cccc2c1Nc1ccc(F)cc1 |  | ≤12 µM
Nc1cc2c(cc1F)CN(c1nn3c(C4CC4)nnc3c3ccccc13)CC2 | KER2008 | 0.46 µM
CNc1nc(Nc2ccc(C#N)cc2)nc(Oc2ccc3ccccc3c2)n1 |  | 0.156 µM
Cc1cc(-c2ccc(C#N)cc2)cc(C)c1Oc1ccnc(S(=O)(=O)CC(=O)Nc2ccc(F)cc2)n1 |  | 0.162 µM
N#Cc1ccc(Nc2nc(Oc3c(F)cc(-c4ccc(C#N)cc4)cc3F)c3sccc3n2)cc1 | IIIB | 0.041 µM
CNc1nc(Nc2ccc(C#N)cc2F)nc(Oc2ccc3cccc(Cl)c3c2)n1 |  | 0.802 µM
c1ccc2c(c1)CN(c1nn3c(C4CC4)nnc3c3ccccc13)C2 | KER2008 | >100 µM
N#Cc1cnc2c(Cl)cccc2c1Nc1cccc(Cl)c1 |  | ≤12 µM
O=[N+]([O-])c1ccc2c(c1)CN(c1nn3c(C(F)F)nnc3c3ccccc13)CC2 | 98US_MSC5016 | 7.02 µM
N#Cc1cnc2c(Cl)cccc2c1Nc1cccc(F)c1 |  | ≤10 µM
c1ccc(-c2nnc3c4ccccc4c(N4CCc5ccccc5C4)nn23)cc1 | 98US_MSC5016 | 87.2 µM
N#Cc1ccc(Nc2nc(N)nc(Oc3ccc4cccc(Br)c4c3)n2)c(F)c1 |  | 0.415 µM
N#Cc1cnc2c(F)cccc2c1Nc1cccc(Br)c1 |  | ≤12 µM
Cc1nnc2c3ccccc3c(N3CCc4cccnc4C3)nn12 | 98US_MSC5016 | 2.18 µM
CNc1nc(Nc2ccc(C#N)cc2F)nc(Oc2ccc3cccc(Br)c3c2)n1 |  | 0.36 µM
N#Cc1cnc2c(Cl)cccc2c1Nc1ccc(Cl)cc1 |  | ≤12 µM
Cc1ccc(CS(=O)(=O)n2c(=O)[nH]c3ccc(Cl)cc32)cc1 |  | 0.79 µM
N#Cc1ccc(Nc2nc(Oc3ccc(-c4ccc(C#N)cc4)c(F)c3F)c3sccc3n2)cc1 | IIIB | 0.039 µM
CS(=O)(=O)Nc1ccc2c(c1)CN(c1nn3c(C4CC4)nnc3c3ccccc13)CC2 | IIIB | 0.62 µM
N#Cc1cnc2c(Cl)cccc2c1Nc1ccccc1 |  | ≤12 µM
Cc1cc(-c2ccc(C#N)cc2)cc(Cl)c1Oc1nc(Nc2ccc(C#N)cc2)nc2ccsc12 | IIIB | 0.044 µM
CCNc1nc(Nc2ccc(C#N)cc2F)nc(Oc2ccc3cccc(Cl)c3c2)n1 |  | 1.618 µM
N#Cc1ccc2c(Oc3ccccc3OCCn3ccc(=O)[nH]c3=O)cc(F)cc2c1 |  | 0.0048 µM
C=CNc1nc(Nc2ccc(C#N)cc2F)nc(Oc2ccc3cccc(Br)c3c2)n1 |  | 1.173 µM
N#Cc1cnc2c(F)cccc2c1Nc1cccc(Cl)c1 |  | ≤12 µM